Measurements from ChEMBL document CHEMBL3627621, “Interactions of a potent cyclic peptide inhibitor with the light chain of botulinum neurotoxin A: Insights from X-ray crystallography” (2015).

Protein sequences, listed by entry. Tags and fused reporters are not part of them. Residues count along the entry.
UniProt P0DPI0, 2-448 limits assumed: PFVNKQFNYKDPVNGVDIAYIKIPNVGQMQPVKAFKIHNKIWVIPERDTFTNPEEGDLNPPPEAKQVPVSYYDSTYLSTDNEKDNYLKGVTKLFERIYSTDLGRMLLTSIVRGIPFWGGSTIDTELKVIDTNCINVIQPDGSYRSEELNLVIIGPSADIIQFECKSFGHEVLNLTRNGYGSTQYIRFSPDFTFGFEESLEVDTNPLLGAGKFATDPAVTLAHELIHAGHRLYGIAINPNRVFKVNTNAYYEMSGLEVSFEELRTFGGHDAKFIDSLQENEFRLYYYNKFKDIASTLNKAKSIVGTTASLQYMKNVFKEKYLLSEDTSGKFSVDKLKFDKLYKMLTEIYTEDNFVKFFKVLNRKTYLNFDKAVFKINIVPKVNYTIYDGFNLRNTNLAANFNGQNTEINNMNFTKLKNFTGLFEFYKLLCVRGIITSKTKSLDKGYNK

Columns and labels:
[1] = target: T1, Botulinum neurotoxin type A (Clostridium botulinum, UniProt P0DPI0); experiment: Inhibition of Clostridium botulinum BoNT/A light chain 448 residue preincubated for 30 mins by FRET assay
[2] = target: T1, Botulinum neurotoxin type A; experiment: Inhibition of Clostridium botulinum BoNT/A light chain 448 residue coincubated with TCEP for 30 mins and TCEP present during reaction by FRET assay
[3] = target: T1, Botulinum neurotoxin type A; experiment: Inhibition of Clostridium botulinum BoNT/A light chain 448 residue coincubated with TCEP for 30 mins and TCEP absent during reaction by FRET assay
[4] = target: T1, Botulinum neurotoxin type A; experiment: Inhibition of Clostridium botulinum BoNT/A light chain 448 residue coincubated with TCEP for 60 mins and TCEP present during reaction by FRET assay
[5] = target: T1, Botulinum neurotoxin type A; experiment: Inhibition of Clostridium botulinum truncated-BoNT/A light chain 424 residue preincubated for 30 mins by FRET assay
[6] = target: T1, Botulinum neurotoxin type A; experiment: Inhibition of Clostridium botulinum BoNT/A light chain 448 residue coincubated with TCEP for 60 mins and TCEP absent during reaction by FRET assay
[7] = Effect on BoNT/A-induced half paralysis in mouse phrenic nerve- hemidiaphragm assessed as half-paralysis time at 15 uM pretreated for 2 hrs (reference value: 159 +/- 22.1 min)

Q: With `C[C@H](O)[C@@H]1NC(=O)[C@H](Cc2cc3ccccc3[nH]2)NC(=O)[C@H](CCCNC(=N)N)NC(=O)[C@@H](N)CCNC(=O)[C@@H](N)CSSC[C@@H](C(N)=O)NC(=O)[C@H](CCCCN)NC1=O` as the compound, how does the Ki [1] read?
A: The Ki was 468 nM.

Q: For `CC(C)C[C@H](NC(=O)[C@@H]1CSSC[C@H](N)C(=O)NCC[C@H](N)C(=O)N[C@@H](CCCNC(=N)N)C(=O)N[C@@H](Cc2cc3ccccc3[nH]2)C(=O)N[C@@H]([C@H](C)O)C(=O)N[C@@H](CCCCN)C(=O)N1)C(N)=O` [listing 1 of 2 here], which Ki [2] is on record?
A: Its Ki is 157 nM.

Q: What about the Ki [3] of the same compound?
A: Its Ki is 26.4 nM.

Q: What about the Ki [4] of the same compound?
A: The Ki was 162 nM.

Q: What about the Ki [1] of the same compound?
A: The Ki was 12.3 nM.

Q: What about the Ki [5] of the same compound?
A: The Ki was 39.2 nM.

Q: And the Ki [6]?
A: Its Ki is 46 nM.

Q: With `CC(C)C[C@H](NC(=O)[C@@H]1CSSC[C@H](N)C(=O)NCC[C@H](N)C(=O)N[C@@H](CCCNC(=N)N)C(=O)N[C@@H](Cc2cc3ccccc3[nH]2)C(=O)N[C@@H]([C@H](C)O)C(=O)N[C@@H](CCCCN)C(=O)N1)C(N)=O` [listing 2 of 2 here] as the compound, how does the Time [7] read?
A: The Time was 167 min.
